Sequence variants of PSTVd loop 6 after infection

Reference: Wu et al. 2024, doi:10.1371/journal.ppat.1012142.

Region: loop 6 of PSTVd (intermediate strain), upper and lower strand joined, each 5' to 3', the first 5 letters being the upper strand, closing pairs included. Wild type: UGACCGCGAG. Varied positions (N): UNNNCGNNNG.

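A pool of all variants was put on leaves of three Nicotiana benthamiana plants. Samples came from the inoculated region at 5 days, the leaf margin at 10 and upper systemic leaves at 12.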

Numbers give reads per thousand; 0 = not seen among the reads, higher = more abundant. Each site shows the three plants. "Pool" is the share in the plasmid pool used as inoculum, on the same scale. The inoculated region was read from the minus strand, the other sites from the plus strand. With 36,220-57,551 reads a sample, very low values are single reads.

| sequence | pool | inoculated region | leaf margin | systemic leaves |
|---|---|---|---|---|
| UGCGCGGAAG | 0.0654 | 0.799 / 0.808 / 0.479 | 0 / 0 / 0.0232 | 0 / 0.0202 / 0.0205 |
| UUCACGGUCG | 0.301 | 0.695 / 0.736 / 0.424 | 0.0828 / 0.101 / 0.0696 | 0 / 0 / 0 |
| UCAUCGAUGG | 0.248 | 0.122 / 0.0719 / 0.129 | 0 / 0 / 0.0464 | 0 / 0 / 0 |
| UAGACGUCAG | 0.183 | 0.104 / 0.144 / 0.111 | 0.0552 / 0 / 0 | 0 / 0 / 0 |
| UCCGCGACGG | 0.183 | 0.0521 / 0.0898 / 0.0738 | 0 / 0 / 0 | 0 / 0 / 0 |
| UACGCGAAAG | 0.144 | 0.0869 / 0.0180 / 0.0369 | 0 / 0 / 0 | 0 / 0 / 0 |
| UAGGCGUAAG | 0.131 | 0.0521 / 0.0180 / 0.0738 | 0 / 0 / 0 | 0 / 0 / 0 |
| UACGCGUCUG | 0.261 | 0.261 / 0.0539 / 0.111 | 0.0276 / 0 / 0.0232 | 0 / 0 / 0 |
| UCCUCGUCGG | 0.366 | 0.191 / 0.0898 / 0.129 | 0 / 0 / 0 | 0 / 0 / 0 |
| UCAUCGCAUG | 0.183 | 0.104 / 0.144 / 0.0369 | 0 / 0 / 0.0232 | 0 / 0 / 0 |
| UAUGCGCAAG | 0.0784 | 0.122 / 0.108 / 0.221 | 0 / 0 / 0 | 0 / 0 / 0 |
| UCUCCGGAUG | 0.366 | 0.104 / 0.0719 / 0.111 | 0.0552 / 0 / 0.0232 | 0 / 0 / 0 |
| UACUCGACCG | 0.131 | 0.0869 / 0.162 / 0.0738 | 0 / 0 / 0 | 0 / 0 / 0 |
| UGGCCGAUUG | 0.392 | 0.104 / 0.108 / 0.129 | 0.0276 / 0 / 0.0232 | 0 / 0 / 0 |
| UGUCCGCGAG | 0.275 | 0.209 / 0.359 / 0.369 | 0.248 / 0.177 / 0.232 | 0.270 / 0.121 / 0.431 |
| UUAUCGUAAG | 0.0915 | 0.104 / 0.0539 / 0.0553 | 0 / 0 / 0.0232 | 0 / 0 / 0 |
| UUGCCGUAUG | 0.405 | 0.0695 / 0.0719 / 0.0738 | 0.276 / 0 / 0.0232 | 0 / 0 / 0 |
| UCGCCGCUUG | 0.170 | 0.191 / 0.0898 / 0.0184 | 0 / 0 / 0 | 0 / 0 / 0 |
| UUUGCGGUAG | 0.235 | 0.104 / 0.0719 / 0.148 | 0 / 0 / 0 | 0 / 0 / 0 |
| UUCUCGGGUG | 0.288 | 0.104 / 0.144 / 0.0369 | 0 / 0 / 0 | 0 / 0 / 0 |
| UCAUCGACGG | 0.222 | 0.191 / 0.126 / 0.0369 | 0 / 0 / 0.0232 | 0 / 0 / 0 |
| UCCACGGGCG | 0.118 | 0.0695 / 0.108 / 0.0184 | 0 / 0 / 0.0232 | 0 / 0 / 0 |
| UGGACGUCUG | 0.235 | 0.139 / 0.0898 / 0.111 | 0.0276 / 0 / 0 | 0 / 0 / 0 |
| UGGUCGGUAG | 0.196 | 0.0521 / 0.0898 / 0 | 0 / 0 / 0 | 0 / 0 / 0 |
| UUGACGAGCG | 0.301 | 0.0695 / 0.0359 / 0.148 | 0 / 0.177 / 0.0232 | 0 / 0.0202 / 0.0205 |
| UUGACGCAGG | 0.235 | 0.156 / 0.126 / 0.0738 | 0 / 0 / 0.0232 | 0 / 0 / 0 |
| UCAACGAUUG | 0.314 | 0.104 / 0.180 / 0.129 | 0 / 0 / 0 | 0 / 0 / 0 |
| UAUACGGUAG | 0.288 | 0.0695 / 0.144 / 0.129 | 0 / 0 / 0.0232 | 0 / 0 / 0 |
| UUAGCGCGAG | 0.418 | 0.104 / 0.251 / 0.0922 | 0.497 / 0.0252 / 0 | 0 / 0.0202 / 0.0820 |
| UGGACGCAUG | 0.196 | 0.122 / 0.144 / 0.0553 | 0 / 0 / 0.0232 | 0 / 0 / 0 |
| UAUGCGAGCG | 0.170 | 0.0521 / 0.0719 / 0.0738 | 0 / 0 / 0 | 0 / 0 / 0 |
| UGGUCGUUGG | 0.301 | 0.156 / 0.108 / 0 | 0 / 0 / 0.0232 | 0 / 0 / 0 |
| UAUACGGUCG | 0.340 | 0.156 / 0.162 / 0.129 | 0 / 0 / 0.0232 | 0 / 0 / 0 |
| UCUGCGUACG | 0.366 | 0.0695 / 0.0539 / 0.148 | 0 / 0 / 0 | 0 / 0 / 0 |
| UAGACGUUAG | 0.327 | 0.139 / 0.0539 / 0.111 | 0 / 0 / 0 | 0 / 0 / 0 |
| UAUGCGCCCG | 0.275 | 0.156 / 0.0359 / 0.184 | 0 / 0 / 0.0232 | 0 / 0 / 0.0205 |
| UCGGCGUGUG | 0.431 | 0.0521 / 0.0719 / 0.166 | 0.0276 / 0 / 0 | 0 / 0 / 0.0205 |
| UGAACGCAAG | 0.131 | 0.765 / 0.808 / 0.996 | 0 / 0.252 / 0.0928 | 0.0180 / 0.121 / 0.103 |
| UUUCCGCCCG | 0.235 | 0.191 / 0.0898 / 0.166 | 0.0276 / 0 / 0.0696 | 0 / 0 / 0 |
| UAAUCGAAGG | 0.144 | 0.0521 / 0.144 / 0.129 | 0 / 0 / 0 | 0 / 0 / 0 |
| UCGUCGCAUG | 0.144 | 0.0695 / 0.0719 / 0.0922 | 0.0276 / 0 / 0 | 0 / 0 / 0 |
| UGCCCGCACG | 0.196 | 0.0174 / 0.0719 / 0.0738 | 0 / 0 / 0 | 0 / 0 / 0 |
| UUUACGCGUG | 0.301 | 0.104 / 0.0898 / 0.0922 | 0 / 0 / 0.0464 | 0 / 0 / 0 |
| UUCACGUUGG | 0.327 | 0.104 / 0.0719 / 0.0184 | 0 / 0 / 0.0232 | 0 / 0.0202 / 0 |
| UCCCCGCCCG | 0.379 | 0.191 / 0.0898 / 0.111 | 0 / 0 / 0 | 0 / 0.0202 / 0 |
| UCCCCGCAGG | 0.275 | 0.174 / 0.0719 / 0.0369 | 0 / 0 / 0.0232 | 0 / 0 / 0 |
| UGCUCGAUGG | 0.471 | 0.104 / 0.126 / 0.111 | 0 / 0 / 0 | 0 / 0 / 0 |
| UAGCCGCCGG | 0.183 | 0.104 / 0.0719 / 0.0553 | 0.0552 / 0.0757 / 0 | 0 / 0 / 0 |
| UCGUCGGAGG | 0.157 | 0.122 / 0.0719 / 0.0553 | 0 / 0 / 0.0232 | 0 / 0 / 0 |
| UACUCGUGCG | 0.157 | 0.174 / 0.0359 / 0.0922 | 0 / 0 / 0.0232 | 0 / 0 / 0 |
| UACUCGCCAG | 0.144 | 0.122 / 0.0898 / 0.0553 | 0 / 0 / 0.0232 | 0 / 0 / 0 |
| UGGCCGGAGG | 0.144 | 0.139 / 0.0898 / 0.184 | 0 / 0 / 0.0232 | 0 / 0 / 0 |
| UCGCCGACGG | 0.248 | 0.104 / 0.162 / 0.111 | 0 / 0 / 0.0232 | 0 / 0 / 0 |
| UUUCCGCCAG | 0.157 | 0.0695 / 0.0719 / 0.111 | 0 / 0 / 0.0464 | 0 / 0 / 0 |
| UUAUCGCUGG | 0.209 | 0.0869 / 0.0898 / 0.111 | 0 / 0 / 0 | 0 / 0 / 0 |
| UGAUCGCCCG | 0.379 | 0.0869 / 0.180 / 0.0553 | 0.110 / 0 / 0 | 0 / 0 / 0.0205 |
| UUGUCGCGUG | 0.209 | 0.122 / 0.126 / 0.111 | 0 / 0.0504 / 0.0232 | 0 / 0 / 0 |
| UAUUCGCGGG | 0.144 | 0.0869 / 0.0898 / 0.0738 | 0.0552 / 0 / 0.0696 | 0 / 0 / 0 |

The first 8 entries again:

sequence,pool,inoculated region,leaf margin,systemic leaves
UGCGCGGAAG,0.0654,0.799 / 0.808 / 0.479,0 / 0 / 0.0232,0 / 0.0202 / 0.0205
UUCACGGUCG,0.301,0.695 / 0.736 / 0.424,0.0828 / 0.101 / 0.0696,0 / 0 / 0
UCAUCGAUGG,0.248,0.122 / 0.0719 / 0.129,0 / 0 / 0.0464,0 / 0 / 0
UAGACGUCAG,0.183,0.104 / 0.144 / 0.111,0.0552 / 0 / 0,0 / 0 / 0
UCCGCGACGG,0.183,0.0521 / 0.0898 / 0.0738,0 / 0 / 0,0 / 0 / 0
UACGCGAAAG,0.144,0.0869 / 0.0180 / 0.0369,0 / 0 / 0,0 / 0 / 0
UAGGCGUAAG,0.131,0.0521 / 0.0180 / 0.0738,0 / 0 / 0,0 / 0 / 0
UACGCGUCUG,0.261,0.261 / 0.0539 / 0.111,0.0276 / 0 / 0.0232,0 / 0 / 0

The authors trace changes outside the varied positions to PCR and sequencing errors or to mutation in the plant; presence does not show that a variant is infectious alone. For reference, wild type rose from 20.7 per thousand in the pool to 195, 198, 203 (inoculated region), 629, 591, 734 (leaf margin) and 942, 870, 868 (systemic leaves).